According to paper PMC4929722:
For at least one entry, the source does not settle the construct or the ends of the probe. For part of these data: At least one verdict was read from the data and is not stated in words by the source.

What was measured:
[1] = tested on: GST-BTas-B (bovine foamy virus BFV3026 (clone pBS-BFV-B)); experiment: EMSA; details: DIG Gel Shift Kit (Roche), 100 ng protein, competitors 20-fold molar excess in pre-incubation, pH and temperature not stated, recombinant protein, protein details: N-terminal GST (pGEX6P-1), label: DIG (printed as digitonin)
[2] = tested on: GST-BTas-B (bovine foamy virus BFV3026 (clone pBS-BFV-B)); experiment: competition with a labelled probe; details: 20x unlabeled LTR competitor vs labeled LTR probe; EMSA, DIG Gel Shift Kit (Roche), 100 ng protein; competitors 20-fold molar excess in pre-incubation; pH and temperature not stated; recombinant protein; protein details: N-terminal GST (pGEX6P-1)

| Sequence | binding result [1] | binding result [2] |
| --- | --- | --- |
| AGAGCTTAAAAATCAAGGTAAC (double strand) [BFV IP TRE probe] | binds | – |
| ATAGCTATTTTAGTAAGTTAGC (double strand) [BFV LTR TRE probe] | binds | – |
| ATAGCTATTTTAGTAAGTTAGC (double strand) [unlabeled BFV LTR TRE competitor] | – | binds |
